Results published in patent US20250283886.

B1: yPIP pAzF (protein)
chain: MTQQEYQNRRQALLAKMAPGSAAIIFAAPEATRSADSEYPYRQNSDFSYLTGFNEPEAVLILVKSDETHNHSVLFNRIRDLTAEIWFGRRLGQEAAPTKLAVDRALPFDEINEQLYLLLNRLDVIYHAQGQYAYADNIVFAALEKLRHGFRKNLRAPATLTDWRPWLHEMRLFKSAEEIAVLRRAGEISALAHTRAMEKCRPGMFEYQLEGEILHEFTRHGARYPAYNTIVGGGENGCILHYTENECELRDGDLVLIDAGCEYRGYAGDITRTFPVNGKFTPAQRAVYDIVLAAINKSLTLFRPGTSIREVTEEVVRIMVVGLVELGILKGDIEQLIAEQAHRPFFMHGLSHWLGMDVHDVGDYGSSDRGRILEPGMVLTVEPGLYIAPDADVPPQYRGIGIRIEDDIVITATGNENLTASVVKDPDDIEALMALNHAGENLYFQE
B2: P. furiosus Aminopeptidase I (protein)
chain: MVDWELMKKIIESPGVSGYEHLGIRDLVVDILKDVADEVKIDKLGNVIAHFKGSAPKVMVAAHMDKIGLMVNHIDKDGYLRVVPIGGVLPETLIAQKIRFFTEKGERYGVVGVLPPHLRREAKDQGGKIDWDSIIVDVGASSREEAEEMGFRIGTIGEFAPNFTRLSEHRFATPYLDDRICLYAMIEAARQLGEHEADIYIVASVQEEIGLRGARVASFAIDPEVGIAMDVTFAKQPNDKGKIVPELGKGPVMDVGPNINPKLRQFADEVAKKYEIPLQVEPSPRPTGTDANVMQINREGVATAVLSIPIRYMHSQVELADARDVDNTIKLAKALLEELKPMDFTPLE
B3: (Cy3B)n-yPIP (protein)
chain: MTQQEYQNRRQALLAKMAPGSAAIIFAAPEATRSADSEYPYRQNSDFSYLTGFNEPEAVLILVKSDETHNHSVLFNRIRDLTAEIWFGRRLGQEAAPTKLAVDRALPFDEINEQLYLLLNRLDVIYHAQGQYAYADNIVFAALEKLRHGFRKNLRAPATLTDWRPWLHEMRLFKSAEEIAVLRRAGEISALAHTRAMEKCRPGMFEYQLEGEILHEFTRHGARYPAYNTIVGGGENGCILHYTENECELRDGDLVLIDAGCEYRGYAGDITRTFPVNGKFTPAQRAVYDIVLAAINKSLTLFRPGTSIREVTEEVVRIMVVGLVELGILKGDIEQLIAEQAHRPFFMHGLSHWLGMDVHDVGDYGSSDRGRILEPGMVLTVEPGLYIAPDADVPPQYRGIGIRIEDDIVITATGNENLTASVVKDPDDIEALMALNHAGENLYFQE
B4: (Atto647N)n-yPIP (protein)
chain: MTQQEYQNRRQALLAKMAPGSAAIIFAAPEATRSADSEYPYRQNSDFSYLTGFNEPEAVLILVKSDETHNHSVLFNRIRDLTAEIWFGRRLGQEAAPTKLAVDRALPFDEINEQLYLLLNRLDVIYHAQGQYAYADNIVFAALEKLRHGFRKNLRAPATLTDWRPWLHEMRLFKSAEEIAVLRRAGEISALAHTRAMEKCRPGMFEYQLEGEILHEFTRHGARYPAYNTIVGGGENGCILHYTENECELRDGDLVLIDAGCEYRGYAGDITRTFPVNGKFTPAQRAVYDIVLAAINKSLTLFRPGTSIREVTEEVVRIMVVGLVELGILKGDIEQLIAEQAHRPFFMHGLSHWLGMDVHDVGDYGSSDRGRILEPGMVLTVEPGLYIAPDADVPPQYRGIGIRIEDDIVITATGNENLTASVVKDPDDIEALMALNHAGENLYFQE

Assays:
DDPFQQ = target: T1, DDPFQQ
T1 chain: DDPFQQ

NNPFQQ = target: T2, NNPFQQ
T2 chain: NNPFQQ

QQPFQQ = target: T3, QQPFQQ
T3 chain: QQPFQQ

HHPFQQ = target: T4, HHPFQQ
T4 chain: HHPFQQ

SSPFQQ = target: T5, SSPFQQ
T5 chain: SSPFQQ

MMPFQQ = target: T6, MMPFQQ
T6 chain: MMPFQQ

IIPFQQ = target: T7, IIPFQQ
T7 chain: IIPFQQ

AAPFQQ = target: T8, AAPFQQ
T8 chain: AAPFQQ

FFPFQQ = target: T9, FFPFQQ
T9 chain: FFPFQQ

KKPFQQ = target: T10, KKPFQQ
T10 chain: KKPFQQ

VVPFQQ = target: T11, VVPFQQ
T11 chain: VVPFQQ

EEPFQQ = target: T12, EEPFQQ
T12 chain: EEPFQQ

TTPFQQ = target: T13, TTPFQQ
T13 chain: TTPFQQ

RRPFQQ = target: T14, RRPFQQ
T14 chain: RRPFQQ

PPPFQQ = target: T15, PPPFQQ
T15 chain: PPPFQQ

YYPFQQ = target: T16, YYPFQQ
T16 chain: YYPFQQ

LLPFQQ = target: T17, LLPFQQ
T17 chain: LLPFQQ

CCPFQQ = target: T18, CCPFQQ
T18 chain: CCPFQQ

GGPFQQ = target: T19, GGPFQQ
T19 chain: GGPFQQ

WWPFQQ = target: T20, WWPFQQ
T20 chain: WWPFQQ

YAAFAAWADDDW1 = target: T21, YAAFAAWADDDW1
T21 chain: YAAFAAWADDDW

FPFPFP{LYSN3}NH2 = target: T22, FPFPFP{LYSN3}NH2
T22 chain: FPFPFPX

Protein	HPLC Assay Conv; 1 mM Peptide, 1 uM enzyme, RT/0.5 hr (DDPFQQ) [%]	HPLC Assay Conv; 1 mM Peptide, 1 uM enzyme, RT/0.5 hr (NNPFQQ) [%]	HPLC Assay Conv; 1 mM Peptide, 1 uM enzyme, RT/0.5 hr (QQPFQQ) [%]	HPLC Assay Conv; 1 mM Peptide, 1 uM enzyme, RT/0.5 hr (HHPFQQ) [%]	HPLC Assay Conv; 1 mM Peptide, 1 uM enzyme, RT/0.5 hr (SSPFQQ) [%]	HPLC Assay Conv; 1 mM Peptide, 1 uM enzyme, RT/0.5 hr (MMPFQQ) [%]	HPLC Assay Conv; 1 mM Peptide, 1 uM enzyme, RT/0.5 hr (IIPFQQ) [%]	HPLC Assay Conv; 1 mM Peptide, 1 uM enzyme, RT/0.5 hr (AAPFQQ) [%]	HPLC Assay Conv; 1 mM Peptide, 1 uM enzyme, RT/0.5 hr (FFPFQQ) [%]	HPLC Assay Conv; 1 mM Peptide, 1 uM enzyme, RT/0.5 hr (KKPFQQ) [%]	HPLC Assay Conv; 1 mM Peptide, 1 uM enzyme, RT/0.5 hr (VVPFQQ) [%]	HPLC Assay Conv; 1 mM Peptide, 1 uM enzyme, RT/0.5 hr (EEPFQQ) [%]	HPLC Assay Conv; 1 mM Peptide, 1 uM enzyme, RT/0.5 hr (TTPFQQ) [%]	HPLC Assay Conv; 1 mM Peptide, 1 uM enzyme, RT/0.5 hr (RRPFQQ) [%]	HPLC Assay Conv; 1 mM Peptide, 1 uM enzyme, RT/0.5 hr (PPPFQQ) [%]	HPLC Assay Conv; 1 mM Peptide, 1 uM enzyme, RT/0.5 hr (YYPFQQ) [%]	HPLC Assay Conv; 1 mM Peptide, 1 uM enzyme, RT/0.5 hr (LLPFQQ) [%]	HPLC Assay Conv; 1 mM Peptide, 1 uM enzyme, RT/0.5 hr (CCPFQQ) [%]	HPLC Assay Conv; 1 mM Peptide, 1 uM enzyme, RT/0.5 hr (GGPFQQ) [%]	HPLC Assay Conv; 1 mM Peptide, 1 uM enzyme, RT/0.5 hr (WWPFQQ) [%]	further results
B1	0	0	0	0	0	0	0	0	0	0	0	0	0	0	26	0	0	0	0	0	–
B2	86	81	100	19	90	100	0	100	65	100	0	93	100	100	0	100	99	72	0	37	HPLC Assay Conv; 1 mM Peptide, 1.0 uM enzyme, RT/0.5 hr (YAAFAAWADDDW1): Distribution (product: Mainly ADDDWK)
B3	–	–	–	–	–	–	–	–	–	–	–	–	–	–	–	–	–	–	–	–	HPLC Assay Conv; 1 mM peptide, 14 mM enzyme, Tris pH 8.0, 30 C/15 min (FPFPFP{LYSN3}NH2): 100%
B4	–	–	–	–	–	–	–	–	–	–	–	–	–	–	–	–	–	–	–	–	HPLC Assay Conv; 1 mM peptide, 14 mM enzyme, 30 C/1 hr (FPFPFP{LYSN3}NH2): 100%
